Compound potency records, mixed from different reports. Data source: NIAID ChemDB in PubChem.

Common to all: whole-cell or culture tests; species: HIV-1; method: MTT; endpoint: EC50

Conditions beyond the fields shown may differ between rows. Blank or dashed fields: not listed here. ECn is the concentration giving n% inhibition of infection, replication or growth.

compound	cells	strain or isolate	changes	value
Cc1cc(C#N)cc(C)c1Oc1ccc(N)c(NC2CCN(Cc3ccncc3)CC2)n1	MT-4	IIIB	Resistant strain (K103N + Y181C)	1 µM
CC(=O)c1ccc(C)cc1NC(C(N)=O)c1c(Cl)cccc1Cl	MAGI	IIIB	RT-V189I	0.22 µM
Cc1cc(C#N)cc(C)c1Oc1ccc(N)c(NC2CCN(Cc3ccc(C(N)=O)cc3)CC2)n1	MT-4	IIIB	-	0.036 µg/mL
Cc1cn([C@H]2C[C@H](N=[N+]=[N-])[C@@H](CO)O2)c(=O)[nH]c1=O	MT-4	IIIB	K103N	0.006 µM
c1cc(CN2CCCNCCNCCCNCC2)ccc1CN1CCCNCCNCCCNCC1	MT-4	T20R/C34R (subtype B)	-	0.001 µg/mL
C#Cc1ccc(Nc2nccc(Oc3c(C)cc(-c4cn(Cc5ccccc5)nn4)cc3C)n2)cc1	MT-4	IIIB	K103N	0.22 µM
Cc1cc(C#Cc2cccc(N)c2)cc(C)c1Oc1ccnc(NC2CCN(Cc3ccc(S(N)(=O)=O)cc3)CC2)n1	MT-4	IIIB	-	0.006 µM
C#Cc1ccc(Nc2nccc(Oc3c(C)cc(-c4cn(CC(=O)Nc5ccc(Br)cc5)nn4)cc3C)n2)cc1	MT-4	RES056	-	>19.78 µM
CNc1nc(Nc2c(C)cc(C)cc2C)nc(NC2CCN(Cc3ccc(C(N)=O)cc3)CC2)n1	MT-4	IIIB	Resistant strain (K103N + Y181C)	0.56 µM
C#Cc1ccc(Nc2nccc(Oc3c(C)cc(-c4cn(CCc5ccccc5)nn4)cc3C)n2)cc1	MT-4	IIIB	E138K	≥2.05 µM
Cc1cc(C#Cc2ccccc2)cc(C)c1Oc1ccnc(Nc2ccc(C#N)cc2)n1	MT-4	IIIB	RES056	8.202 µM
C=C1[C@H](CO)[C@@H](O)C[C@@H]1n1cnc2c(=O)[nH]c(N)nc21	MT-4	IIIB	Resistant strain (K103N + Y181C)	0.034 µM
Cc1cc(C#Cc2ccccc2)cc(C)c1Oc1ccnc(NC2CCN(Cc3ccc(S(N)(=O)=O)cc3)CC2)n1	MT-4	IIIB	Y181C	0.103 µM
C#Cc1ccc(Nc2nccc(Oc3c(C)cc(-c4cn(Cc5ccc(C#N)cc5)nn4)cc3C)n2)cc1	MT-4	IIIB	-	0.076 µM
Cc1cn([C@H]2C[C@H](N=[N+]=[N-])[C@@H](CO)O2)c(=O)[nH]c1=O	MT-4	UG92029 (subtype A)	-	0.001 µg/mL
Cc1cc(C#Cc2ccc(C(=O)O)cc2)cc(C)c1Oc1ccnc(Nc2ccc(C#N)cc2)n1	MT-4	IIIB	L100I	0.289 µM

Repeating the final 2 entries:

{"compound": "Cc1cn([C@H]2C[C@H](N=[N+]=[N-])[C@@H](CO)O2)c(=O)[nH]c1=O", "cells": "MT-4", "strain or isolate": "UG92029 (subtype A)", "value": "0.001 µg/mL"}
{"compound": "Cc1cc(C#Cc2ccc(C(=O)O)cc2)cc(C)c1Oc1ccnc(Nc2ccc(C#N)cc2)n1", "cells": "MT-4", "strain or isolate": "IIIB", "changes": "L100I", "value": "0.289 µM"}